Source: patent publication US20020115066A1, “Viral therapeutics” (priority 1998, published 2002)

Experiment: Stability and cleavage of core protein variants (Western blot with JM122)
Assay type: cell-based, hamster
Conditions: 16 hours after electroporation

Molecule	abundance of uncleaved product relative to cleaved material at the internal processing site (relative band intensities)	level of reduction in amount of protein (compared with pSFV.1-195, pSFV.1-153 and pSFV.Δ125-144)
pSFV.Δ125-144: construct expressing a core variant in which residues 125 to 144 had been deleted (protein) GACECPGRSRRPCTMSTNPKPQRKTKRNTNRRPQDVKFPGGGQIVGGVYLLPRRGPRLGVRATRKTSERSQPRGRRQPIPKARRPKGRNWAQPGYPWPLYGNEGCGWAGWLLSPSGSRPSWGPNVDLMGYIPLVGAPLRGAARALAHGVRVLEDGVNYATGNLPGCSFSIFLLAL	4-5 fold	
pSFV.1-124,145-152: core variant truncated at residue 152 and lacking amino acids 125 to 144 (protein) GACECPGRSRRPCTMSTNPKPQRKTKRNTNRRPQDVKFPGGGQIVGGVYLLPRRGPRLGVRATRKTSERSQPRGRRQPIPKARRPKGRNWAQPGYPWPLYGNEGCGWAGWLLSPSGSRPSWGPNVDLMGYIP		approximately 5 fold

No dose or concentration is given here for some results.
